Anti-infective test results gathered from many reports (values: NIAID ChemDB through PubChem).

Shared fields: target-level tests

Percent inhibition refers to the dose given; in toxicity tests it is the harm to the cells. a–b is a range or a potency band. ICn is the concentration giving n% inhibition. Fold resistance has wild type as its base. Blank or dashed fields: not listed here. Rows are shuffled and stem from different studies.

structure	species	strain	measure	dose	protein	read by	changes	result
CC(C)[C@H](N)C(=O)N[C@H](C(=O)N[C@@H](Cc1ccccc1)[C@@H](O)C(=O)N[C@H](Cc1ccccc1)C(=O)N[C@@H](C(=O)N[C@@H](C(N)=O)C(C)C)C(C)C)C(C)C	HIV-1		IC50		Protease			<1000 µM
O=[N+]([O-])c1ccccc1S(=O)(=O)Nc1cccc(-c2nc3ccccc3[nH]2)c1	HIV-1		IC50		gp120 + CD4	ELISA / entry		0.02676 µM
O=C(O)[C@@H]1CC[C@H](NS(=O)(=O)c2ccc(N3CCC(CCCC4CCN(S(=O)(=O)c5ccc(F)cc5)CC4)CC3)c(Cl)c2)C1	HIV-1		IC50		gp120 + CD4	fluorescence		>10 µM
CCOC(=O)c1ccc(Nc2nc(-c3cccnc3)nc3ccccc23)cc1	HIV-1		IC50		Capsid	AlphaScreen		14.2 µM
Cc1cn([C@H]2CC[C@@H](COP(=O)(O)OP(=O)(O)OP(=O)(O)O)O2)c(=O)[nH]c1=O	HIV		fold resistance		Reverse transcriptase		RT-L74V	3.86
CC[C@H](C)[C@H](NC(=O)C[C@H](O)[C@H](CC(C)C)NC(=O)[C@H](CC(N)=O)NC(=O)[C@H](CCC(N)=O)NC(=O)[C@H](CO)NC(=O)[C@@H](N)C(C)C)C(=O)N[C@H](C(=O)O)C(C)C	HIV-2		Ki		Protease			9 µM
O=c1c(-c2ccccn2)cn2ccn(Cc3cccc(Cl)c3)c(=O)c2c1O	HIV-1		IC50		Integrase	ELISA		<0.01 µM
O=C(/C=C/C1=CC2C=Cc3cc(O)c(O)cc3OC2C(O)=C1)OC(Cc1ccc(O)c(O)c1)C(=O)O	HIV		IC50		Integrase	ELISA		1.78–18.5 µg/mL
COc1ccc(Nc2nc(-c3cccnc3)nc3ccccc23)cc1OC	HIV-1		IC50		Capsid	AlphaScreen		>200 µM
CCN1c2ncc(CCOc3ccc(C(C)CC(=O)O)c4ccccc34)cc2C(=O)N(C)c2cccnc21	HIV-1		fold resistance		Reverse transcriptase	nucleotide incorporation / radiometric	RT-Y188L	>10
O=C(/C=C/c1cccn1Cc1ccc(F)cc1)CC(=O)C(=O)O	HIV-1		IC50		RNase H	substrate cleavage / fluorescence	Y501A	11.6 µM
COc1ccc(-c2cc(=O)c3c(O)c(OC)c(OC)cc3o2)cc1	HIV-1		inhibition	100 µM	RNase H	RNase H / fluorescence		20%
CCN1c2ncc(CCOc3ccc(NC(=O)CCC(=O)O)cc3C)cc2C(=O)N(C)c2cccnc21	HIV-1	IIIB	fold resistance		Reverse transcriptase	nucleotide incorporation / radiometric	RT-K103N Y181C	>1
Cc1cn([C@H]2CC[C@@H](COP(=O)(O)OP(=O)(O)OP(=O)(O)OP(=O)(O)OC[C@@H]3CC[C@H](n4cc(C)c(=O)[nH]c4=O)O3)O2)c(=O)[nH]c1=O	HIV		fold resistance		Reverse transcriptase	nucleotide incorporation / radiometric	RT-W88G	4
O=C(O)Cc1cn2ccn(Cc3cccc(Cl)c3)c(=O)c2c(O)c1=O	HIV-1		IC50		Integrase	ELISA		0.01–0.1 µM
Nc1nc2c(ncn2[C@H]2CO[C@@H](COP(=O)(O)OP(=O)(O)OP(=O)(O)O)O2)c(=O)[nH]1	HIV		fold resistance		Reverse transcriptase	radiometric	RT-K103N	0.55
O=C1C(=Cc2ccc(-c3cc(Cl)ccc3Cl)o2)SC(=S)N1C1CCS(=O)(=O)C1	HIV-1		IC50		Rev:RRE	scintillation proximity / radiometric		10 µM
Cc1cc(-c2ccc[n+]([O-])c2)ccc1OCCc1cnc2c(c1)C(=O)N(C)c1cccnc1N2C1CC1	HIV-1	IIIB	fold resistance		Reverse transcriptase	nucleotide incorporation / radiometric	RT-K103N Y181C	>2
NC[C@H]1O[C@H](O[C@H]2[C@H](O)[C@@H](O[C@H]3O[C@H](CO)[C@@H](O)[C@H](N)[C@H]3O)[C@H](N)C[C@@H]2N)[C@H](N)[C@@H](O)[C@@H]1O	HIV-1		IC50		Rev:RRE	fluorescence		65 µM
O=C(/C=C/c1cccn1Cc1ccccc1Cl)CC(=O)C(=O)O	HIV-1		inhibition	100 µM	RNase H	substrate cleavage / fluorescence	N474A	21%
CCN1c2ncc(CCOc3ccc(C(=O)O)c4c3CCN(C(=O)OC(C)(C)C)C4)cc2C(=O)N(C)c2cccnc21	HIV-1		fold resistance		Reverse transcriptase	nucleotide incorporation / radiometric	RT-V106A	>10
Cc1cn([C@H]2CC[C@@H](COP(=O)(O)OP(=O)(O)OP(=O)(O)O)O2)c(=O)[nH]c1=O	HIV		IC50		Reverse transcriptase	nucleotide incorporation / radiometric	RT-K65R	0.66 µM
CCN1c2ncc(CCOc3ccc(-c4cncnc4)cc3)cc2C(=O)N(C)c2cccnc21	HIV-1	IIIB	fold resistance		Reverse transcriptase	nucleotide incorporation / radiometric	RT-K103N Y181C	>2
CC[C@H](C)[C@H](NC(=O)[C@@H](C[C@H](O)[C@H](CC1CCCCC1)NC(=O)CC(C)(C)C)C(C)C)C(=O)NCc1ccccn1	HIV-2		Ki		Protease			1 µM
Nc1ccn([C@H]2CC[C@@H](COP(=O)(O)OP(=O)(O)OP(=O)(O)O)O2)c(=O)n1	HIV		fold resistance		Reverse transcriptase		RT-L74V	3.33
CC[C@@H](C)[C@H](NC(=O)[C@@H]1CCCN1C(=O)[C@@H](O)[C@H](Cc1ccccc1)NC(=O)[C@H](CC(=O)N(C)C)NC(=O)CCc1ccccc1)C(=O)N[C@H](C(N)=O)C(C)C	HIV-1		inhibition	5 µM	Protease			23.5%
O=C(NO)[C@H]1CC[C@H](NS(=O)(=O)c2ccc(N3CCC(CCCC4CCN(S(=O)(=O)c5cc(Br)c(Cl)s5)CC4)CC3)c(Cl)c2)C1	HIV-1		IC50		gp120 + CD4	fluorescence		>10 µM
COCOCC1=C2[C@H](CO[C@@H]3O[C@@H](CO)[C@@H](O)[C@H](O)[C@@H]3OCOC)C[C@@H](C)[C@]3(C[C@@H](c4ccoc4)OC3=O)[C@H]2CCC1	HIV-1		inhibition	100 µM	RNase H	RNase H / luminescence		26%
O=C(NCc1cccnc1)c1cn2c(c(O)c1=O)C(=O)N(Cc1cccc(Cl)c1)CC2	HIV-1		IC50		Integrase	ELISA		0.01–0.1 µM
CC(C)[C@H](NC(=O)[C@@H]1CCCN1C(=O)[C@@H](O)[C@H](Cc1ccccc1)NC(=O)OC(C)(C)C)C(=O)NCC1CCCCC1	HIV-1		inhibition	1000 µM	Protease			76.6%
COc1cccc(Cn2cccc2/C=C/C(=O)CC(=O)C(=O)O)c1	HIV-1		IC50		RNase H	substrate cleavage / fluorescence	N474A	100 µM
Nc1ccc(C(=O)Nc2ccc(-c3nc4ccc(NC(=O)c5ccc(N)cc5)cc4[nH]3)cc2)cc1	HIV-1		IC50		Rev:RRE	scintillation proximity / radiometric		7.7 µM
O=[N+]([O-])c1ccc(S(=O)(=O)Nc2ccc(-c3nc4ccccc4[nH]3)cc2)cc1	HIV-1		IC50		gp120 + CD4	ELISA / entry		0.02815 µM
Cc1ccc(Cn2cccc2/C=C/C(=O)CC(=O)C(=O)O)c(C)c1	HIV-1		inhibition	100 µM	RNase H	substrate cleavage / fluorescence	Y501A	0%
Nc1nc2c(ncn2[C@H]2CC[C@@H](COP(=O)(O)OP(=O)(O)OP(=O)(O)OP(=O)(O)OC[C@@H]3CC[C@H](n4cnc5c(=O)[nH]c(N)nc54)O3)O2)c(=O)[nH]1	HIV		fold resistance		Reverse transcriptase	nucleotide incorporation / radiometric	RT-M41L T215Y	0.217
NC[C@H]1O[C@H](O[C@H]2[C@H](O)[C@@H](O[C@H]3O[C@H](CO)[C@@H](O)[C@H](N)[C@H]3O)[C@H](N)C[C@@H]2N)[C@H](O)[C@@H](O)[C@@H]1O	HIV-1		IC50		Rev:RRE	fluorescence		750 µM
CN(C(=O)Cn1ccn2ccc(=O)c(O)c2c1=O)c1ccccc1	HIV-1		IC50		Integrase	ELISA		0.1–1 µM
CC(C)(C)NC(=O)[C@@H]1[C@@H](c2ccccc2)CCN1C(=O)[C@@H](O)[C@H](Cc1ccccc1)NC(=O)[C@H](CC(N)=O)NC(=O)OCc1ccccc1	HIV-1		inhibition	0.05 µM	Protease			83.2%
CC(=O)Nc1ccc(C(=O)Nc2ccc(-c3nc4ccc(NC(=O)c5ccc(NC(C)=O)cc5)cc4[nH]3)cc2)cc1	HIV-1		IC50		Rev:RRE	scintillation proximity / radiometric		0.3 µM
Cc1cc(S(=O)(=O)/[NH+]=C2/N=C3C=C(c4ccsc4)SC3C(=O)N2Cc2ccco2)c(S)cc1Cl	HIV		IC50		Integrase	strand transfer		6 µM
c1ccc2c(NCCCn3ccnc3)nc(-c3ccncc3)nc2c1	HIV-1		IC50		Capsid	AlphaScreen		152.8 µM
Cn1ncnc1-c1cn2ccn(Cc3cccc(Cl)c3)c(=O)c2c(O)c1=O	HIV-1		IC50		Integrase	ELISA		<0.01 µM
O=C(O)CCN1C(=O)/C(=C\c2ccc(-c3ccccc3Cl)o2)SC1=S	HIV-1		IC50		Rev:RRE	scintillation proximity / radiometric		90 µM
CCN1c2ncc(CCOc3ccc(NC(=O)c4ccc(Cl)nc4)cc3C)cc2C(=O)N(C)c2cccnc21	HIV-1	IIIB	fold resistance		Reverse transcriptase	nucleotide incorporation / radiometric	RT-K103N Y181C	1
N=[N+](N)C[C@H]1O[C@H](O[C@H]2[C@@H](O)[C@H](O[C@H]3[C@H](O)[C@@H]([N+](=N)N)C[C@@H](N=C(N)N)[C@H]3O[C@@H]3O[C@@H](CO)[C@H](O)[C@@H](O)[C@@H]3[N+](=N)N)O[C@@H]2CO)[C@@H](N=C(N)N)[C@H](O)[C@H]1O	HIV-1		IC50		Rev:RRE	fluorescence		6 µM
CC(C)(C)c1ccc(S(=O)(=O)Nc2ccc(-c3nc4ccccc4[nH]3)cc2)cc1	HIV-1		IC50		gp120 + CD4	ELISA / entry		0.02745 µM
CCN1c2ncc(CCOc3ccc(/C=C(\C)C(=O)O)c4ccccc34)cc2C(=O)N(C)c2ccc(Cl)nc21	HIV-1		fold resistance		Reverse transcriptase	nucleotide incorporation / radiometric	RT-V106A	1–10
NC[C@H]1O[C@H](O[C@H]2[C@H](O[C@@H]3O[C@H](CO)[C@@H](O)[C@H]3O)[C@@H](O)[C@H](N)C[C@@H]2N)[C@H](N)[C@@H](O)[C@@H]1O	HIV-1		IC50		Rev:RRE	gel		<100 µM
NC(N)=NC[C@@H]1O[C@H](O[C@H]2[C@@H](O)[C@H](O[C@@H]3[C@H](O)[C@@H](N=C(N)N)C[C@@H](N=C(N)N)[C@H]3O[C@H]3O[C@H](CN=C(N)N)[C@@H](O)[C@H](O)[C@H]3N=C(N)N)O[C@@H]2CO)[C@H](N=C(N)N)[C@@H](O)[C@@H]1O	HIV-1		IC50		Rev:RRE	fluorescence		1.3 µM
Nc1ccc2cc(S(=O)(=O)[O-])cc(O)c2c1N=Nc1ccc(NC(=O)Nc2ccc(N=Nc3c(N)ccc4cc(S(=O)(=O)[O-])cc(O)c34)c(S(=O)(=O)[O-])c2)cc1S(=O)(=O)[O-]	HIV-1		IC50		Rev:RRE	scintillation proximity / radiometric		1 µM
CC(C)c1cn(Cc2cccc(Cl)c2)c(=O)c2c(O)c(=O)c(-c3ccccc3)cn12	HIV-1		IC50		Integrase	ELISA		0.01–0.1 µM
CC[C@@H](C)[C@H](NC(=O)[C@@H]1CCCN1C(=O)[C@@H](O)[C@H](CC1CCCCC1)NC(=O)[C@H](CC(N)=O)NC(=O)c1ccco1)C(=O)N[C@H](C(N)=O)C(C)C	HIV-1		inhibition	5 µM	Protease			90.7%
Cc1ccc(Cl)cc1Nc1nc(C(F)(F)F)ccc1C(=O)NN1CCN(c2cccc(Cl)c2)CC1	HIV-1		fold resistance		RNase H	RNase H / absorbance	V108A	>5.5
CC[C@H]1OC(=O)[C@H](C)[C@@H](O[C@H]2C[C@@](C)(OC)[C@@H](O)[C@H](C)O2)[C@H](C)[C@@H](O[C@@H]2O[C@H](C)C[C@H](N(C)C)[C@H]2O)[C@](C)(O)C[C@@H](C)C(=O)[C@H](C)[C@@H](O)[C@]1(C)O	HIV-1		inhibition	100 µM	Rev:RRE	gel		0%
CN(C)c1cccc(Nc2nc(-c3cccnc3)nc3ccccc23)c1	HIV-1		IC50		Capsid	AlphaScreen		30.1 µM
Nc1nc2c(ncn2[C@H]2CC[C@@H](COP(=O)(O)OP(=O)(O)OP(=O)(O)O)O2)c(=O)[nH]1	HIV		fold resistance		Reverse transcriptase	nucleotide incorporation / radiometric	RT-M41L T215Y	0.66
Cc1cc(S(=O)(=O)/[NH+]=C2/N=C3C=C(c4ccc(Cl)cc4)SC3C(=O)N2Cc2ccccc2)c(S)cc1Cl	HIV		IC50		Integrase	strand transfer		4 µM
O=[N+]([O-])c1ccc(S(=O)(=O)Nc2cccc(-c3nc4ccccc4[nH]3)c2)cc1	HIV-1		IC50		gp120 + CD4	ELISA / entry		0.02363 µM
NC[C@@H]1O[C@H](O[C@H]2[C@@H](O)[C@H](O[C@@H]3[C@@H](O)[C@H](N)C[C@H](N)[C@H]3O[C@H]3O[C@H](CN)[C@@H](O)[C@H](O)[C@H]3N)O[C@@H]2CO)[C@H](N)[C@@H](O)[C@@H]1O	HIV-1		IC50		Rev:RRE	scintillation proximity / radiometric		6 µM
Nc1nc2c(ncn2[C@H]2CC[C@@H](COP(=O)(O)OP(=O)(O)OP(=O)(O)OP(=O)(O)OC[C@H]3O[C@@H](n4cnc5c(N)ncnc54)[C@H](O)[C@@H]3O)O2)c(=O)[nH]1	HIV		IC50		Reverse transcriptase	nucleotide incorporation / radiometric	RT-M41L T215Y	1.95 µM
O=[N+]([O-])c1ccc(S(=O)(=O)Nc2ccc(Cc3nc4ccccc4[nH]3)cc2)cc1	HIV-1		IC50		gp120 + CD4	ELISA / entry		0.02516 µM
Cn1cc2c(c(O)c1=O)C(=O)N(Cc1c(F)cccc1Cl)CC2	HIV-1		IC50		Integrase	ELISA		<0.01 µM
O=C(O)c1ccc2c(c1)C(=O)N(c1ccc(-c3cc(-c4ccc(N5C(=O)c6ccc(C(=O)O)cc6C5=O)cc4)nc(-c4ccccc4)n3)cc1)C2=O	HIV-1		IC50		Rev:RRE	scintillation proximity / radiometric		0.5 µM
COc1ccc(OC)c(C/C=C(\C)CC/C=C(\C)CC/C=C(\C)CC/C=C(\C)CC/C=C(\C)CCC=C(C)C)c1	HIV-2		IC90		Reverse transcriptase	nucleotide incorporation		12.8 µM